From paper PMC6018088 come the findings set out here.

One data set has as its target HapR (UniProt Q4F6W7). Put plainly: DNase I footprinting. The settings on record: […]; […], pH and temperature not given ([…]; recombinant protein; residues 1-203; protein details: 6xHis (pET28a); label: FAM or HEX 5' (M13 primers); probe letters rebuilt from the primers and the genome.
The next data set concerns the target T1, Fur (UniProt P0C6C8).
T1 sequence (looked up): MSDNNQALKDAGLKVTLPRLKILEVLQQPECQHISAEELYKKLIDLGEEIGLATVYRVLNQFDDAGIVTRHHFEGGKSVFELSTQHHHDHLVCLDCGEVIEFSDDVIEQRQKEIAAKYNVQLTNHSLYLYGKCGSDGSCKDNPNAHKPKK
In words: DNase I footprinting. The settings on record: DNase I footprinting with FAM/HEX-labeled probes and RQ1 DNase I; pH and temperature not given (cites earlier work); recombinant protein; residues 1-150; protein details: 6xHis (pET28a); label: FAM or HEX 5' (M13 primers); probe letters rebuilt from the primers and the genome.

For part of these data: Protein sequences can lack the tags named with them.

Regarding “CAGGAAACAGCTATGACGATGTCGTAATTCGGTTGAGTGATCATGATGGGTCGAAATGGTGAAAGCGGAGAAAACTCGCTGATAATGATAAAAAACTAATCAAGAACGCTAGTTTATTGTTTTCACTTATCATTGGGTAGTGATCAAAGACTTAACAGTGATAATTATTCACAAAAATAAGTTAGTAAAATCAGCATCACAGACATTTTTTACTGCTGGGTGCTGGATCATGCGTTCAGCGAAGATGACATAATACTCCTCTTTAATCTCATCCACATGTCCGATGAGTTTCAATGATGATTCCGCATCCACTTCTGAGACATAAAAAGAGGGAGCCATAAACACGACTGGCCGTCGTTTTAC (double strand) [hlyU promoter fragment]”, the binding result with HapR and with Fur was “binds” throughout.
Turning to “CAGGAAACAGCTATGACGAGGCAAATCACTGAACAAAGTGCTCTTACCAGTTACAATAATTTAACAACGATAGCATCATTATTAGGCAGCAACCATGATGCATTGATTACTGCTGCCTTACACGAAGTCTAGGGCACTCAGGGTATGAATAAAACACTCTCTAAGCTTTATCAACCGAATATTGTGAAGTGGGCACTAAACTCTTGGCCTCCATTTTGGGGCGCTGGGATCCATATCGAATCGATCAGTGCGGATTTTCGCGAAGTCCGCATCCGCTTGAAATTACGCTGGTGGAATAAAAACGCCAACCGGACTCAATACGGCGGCAGCATTTTCTCACTGACGGATCCCGTTTATGCCTTGATGCACTGGCCGTCGTTTTAC (double strand) [fur promoter fragment]”, the binding result with HapR is given as “binds”.
